Measurements reported in paper PMC9410468 (Marine Drugs, 2022).

Test system: other nAChR subtypes
Assay: two-electrode voltage clamp (TEVC), inhibition of ACh-evoked current in Xenopus oocytes, other nAChR subtypes
Settings: 10 μM TxID-F, ACh 100 μM (α7 200 μM; α1β1δε and α9α10 10 μM), -70 mV, 3–6 separate oocytes

SMILES: CC[C@H](C)[C@@H]1NC(=O)[C@@H]2CCCN2C(=O)[C@H](CO)NC(=O)[C@H](CCSC)NC(=O)[C@H](C)NC(=O)[C@H](CO)NC(=O)[C@@H]2CSSC[C@H](NC(=O)CNC(=O)c3ccc(-c4c5ccc(=[N+](C)C)cc-5oc5cc(N(C)C)ccc45)c(C(=O)[O-])c3)C(=O)N[C@@H](CSSC[C@@H](C(N)=O)NC1=O)C(=O)N[C@@H](CO)C(=O)N[C@@H](Cc1c[nH]cn1)C(=O)N1CCC[C@H]1C(=O)N[C@@H](C(C)C)C(=O)N2 [TxID-F]
- inhibitory activity at the other nAChR subtypes (in words): almost no activity
